Measurements reported in PubChem BioAssay AID624099 (ICCB-Longwood, 2012).
Shown is one part, drawn at random, of about 21,000 reagents. Over the whole deposit, 497 (2.4%) got an active call. 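Higher z means weaker E2 silencing; only reporter increases were scored, and knock-downs that hurt cell survival may mask genuine repressor factors.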

Aim: 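Host factors E2 relies on to silence an HPV18 LCR reporter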 (primary screen)
Cell system: human C33A cervical carcinoma cells (HPV-negative) stably expressing BPV1 E2 and an HPV18 LCR luciferase reporter
Reagent: siRNA pool against human genes, 40 nM
Duration: 72 h
Measured: 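Per-well luciferase luminescence, z-scored on each plate against the plate mean and SD with control wells left out, then averaged across three replicate plates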
Scale: mean z-score and z-score: higher = stronger reporter signal, weaker E2 silencing
Call rule: 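Hit if mean z-score reaches 2 and two or more of three replicate z-scores also reach 2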

| mean z-score | z-score, replicate A | z-score, replicate B | z-score, replicate C | Call | gene | PubChem SID |
| --- | --- | --- | --- | --- | --- | --- |
| -0.84 | -0.86 | -1.06 | -0.58 | inactive | GRIA2 (GeneID 2891) | SID134311604 |
| 0.39 | 0.35 | 0.57 | 0.25 | inactive | GREM1 (GeneID 26585) | SID134325066 |
| -0.49 | -0.28 | -0.74 | -0.45 | inactive | MYLK (GeneID 4638) | SID56479028 |
| -0.89 | -0.54 | -1.18 | -0.95 | inactive | UBE2Q1 (GeneID 55585) | SID134313493 |
| -0.72 | -0.72 | -1.01 | -0.45 | inactive | ZNRF3 (GeneID 84133) | SID134315238 |
| 0.51 | 0.68 | 0.28 | 0.55 | inactive | GFM2 (GeneID 84340) | SID134321467 |
| -1.02 | -1.3 | -1.49 | -0.27 | inactive | PGPEP1L (GeneID 145814) | SID134328606 |
| 0.6 | 0.58 | 0.54 | 0.68 | inactive | SEPTIN4 (GeneID 5414) | SID134316201 |
| 1.1 | 0.92 | 1.21 | 1.16 | inactive | SEPTIN4 (GeneID 5414) | SID134322059 |
| 0.57 | 0.85 | 0.27 | 0.57 | inactive | C1orf216 (GeneID 127703) | SID134320867 |
| -1.28 | -1.44 | -1.14 | -1.25 | inactive | SPATA25 (GeneID 128497) | SID134319286 |

Already shown: 2 of the entries above.
| mean z-score | z-score, replicate A | z-score, replicate B | z-score, replicate C | Call | gene | PubChem SID |
| --- | --- | --- | --- | --- | --- | --- |
| -1.02 | -1.3 | -1.49 | -0.27 | inactive | PGPEP1L (GeneID 145814) | SID134328606 |
| 0.6 | 0.58 | 0.54 | 0.68 | inactive | SEPTIN4 (GeneID 5414) | SID134316201 |

Continued.
| mean z-score | z-score, replicate A | z-score, replicate B | z-score, replicate C | Call | gene | PubChem SID |
| --- | --- | --- | --- | --- | --- | --- |
| 0.18 | 0.23 | 0.26 | 0.06 | inactive | TRPC3 (GeneID 7222) | SID134311833 |
| -0.73 | -0.87 | -0.69 | -0.63 | inactive | ITGB4 (GeneID 3691) | SID134312944 |
| -0.6 | -0.56 | -0.6 | -0.65 | inactive | KDELR3 (GeneID 11015) | SID134316596 |
| 0.84 | 1.03 | 0.34 | 1.14 | inactive | TEX44 (GeneID 165100) | SID134321135 |
| -0.36 | -0.3 | -0.2 | -0.58 | inactive | LOC388752 (retired record) (GeneID 388752) | SID134326940 |
| -0.31 | -0.1 | -0.46 | -0.37 | inactive | DDX43 (GeneID 55510) | SID134317556 |
| -0.24 | -0.21 | -0.51 | -0.01 | inactive | CXXC4 (GeneID 80319) | SID134313665 |
| 1.17 | 1.48 | 1.1 | 0.93 | inactive | ZNF404 (GeneID 342908) | SID134325819 |
| 0.51 | 0.43 | 0.45 | 0.64 | inactive | CPHL1P (GeneID 389160) | SID134327375 |
| -1.42 | -1.26 | -1.3 | -1.68 | inactive | ZSWIM4 (GeneID 65249) | SID134328986 |
| 0.43 | 0.51 | 0.42 | 0.37 | inactive | GALNT11 (GeneID 63917) | SID134312165 |
| 0.24 | 0.16 | 0.33 | 0.22 | inactive | LILRA1 (GeneID 11024) | SID134323623 |
